## Potato spindle tuber viroid, loop 6: variant abundance in plants

Data from the supplement of Wu et al. 2024, doi:10.1371/journal.ppat.1012142.

Region: loop 6 of PSTVd (intermediate strain), upper and lower strand joined, each 5' to 3', the first 5 letters being the upper strand, closing pairs included. Wild type: UGACCGCGAG. Varied positions (N): UNNNCGNNNG.

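A pool of all variants was put on leaves of three Nicotiana benthamiana plants. Samples came from the inoculated region at 5 days, the leaf margin at 10 and upper systemic leaves at 12.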

Values are reads per thousand in the sample; higher means more abundant, 0 means not found.
Each site shows the three plants.
"Pool" is the share in the plasmid pool used as inoculum, on the same scale.
The inoculated region was read from the minus strand, the other sites from the plus strand.
IR is the inoculated region, LM the leaf margin, Sys the systemic leaves.
The authors trace changes outside the varied positions to PCR and sequencing errors or to mutation in the plant; presence does not show that a variant is infectious alone.
Wild type was 20.7 per thousand in the pool and the most common sequence in every sample (inoculated region 195, 198, 203; leaf margin 629, 591, 734; systemic leaves 942, 870, 868).
With 36,220-57,551 reads a sample, very low values are single reads.

{"sequence": "UUAACGGACG", "pool": "0.235", "IR": "0.695 4.42 5.96", "LM": "1.41 1.41 0.766", "Sys": "0.377 0.626 0.369"}
{"sequence": "UUAACGGAGA", "pool": "0.0915", "IR": "0.469 0.503 0.424", "LM": "0.0552 0.151 0.0232", "Sys": "0 0.0404 0"}
{"sequence": "UUAACGGAGG", "pool": "0.275", "IR": "0.643 0.736 0.553", "LM": "0.0276 0.0504 0.0928", "Sys": "0 0 0"}
{"sequence": "UUAACGGAUG", "pool": "0.235", "IR": "0.573 0.593 0.424", "LM": "0.0828 0.0504 0.0696", "Sys": "0 0 0"}
{"sequence": "UUAACGGCAG", "pool": "0.340", "IR": "0.938 0.593 0.811", "LM": "0.221 0.126 0.209", "Sys": "0.0539 0.141 0.0410"}
{"sequence": "UUAACGGCCG", "pool": "0.144", "IR": "0.886 0.647 0.645", "LM": "0.0552 0.101 0.139", "Sys": "0 0.0404 0.0410"}
{"sequence": "UUAACGGCGG", "pool": "0.183", "IR": "0.104 0.0359 0.148", "LM": "0 0 0", "Sys": "0 0 0"}
{"sequence": "UUAACGGCUG", "pool": "0.327", "IR": "0.0521 0.180 0.111", "LM": "0 0 0", "Sys": "0 0 0"}
{"sequence": "UUAACGGGAG", "pool": "0.209", "IR": "0.608 3.90 6.75", "LM": "1.19 1.34 0.905", "Sys": "0.162 0.525 0.554"}
{"sequence": "UUAACGGGCG", "pool": "0.157", "IR": "0.573 4.04 6.73", "LM": "1.19 1.46 1.14", "Sys": "0.180 0.747 0.677"}
{"sequence": "UUAACGGGGG", "pool": "0.118", "IR": "0.660 0.611 0.664", "LM": "0.138 0.151 0.0232", "Sys": "0 0 0"}
{"sequence": "UUAACGGGUG", "pool": "0.157", "IR": "0.556 0.629 0.645", "LM": "0.0828 0.0252 0.0696", "Sys": "0 0 0"}
{"sequence": "UUAACGGUAG", "pool": "0.235", "IR": "0.747 0.916 0.775", "LM": "0.248 0.202 0.116", "Sys": "0.0359 0.162 0.123"}
{"sequence": "UUAACGGUCG", "pool": "0.301", "IR": "0.695 0.647 0.350", "LM": "0.0552 0.126 0.116", "Sys": "0.0180 0.0404 0.0205"}
{"sequence": "UUAACGGUGG", "pool": "0.261", "IR": "0.0869 0.0898 0.0922", "LM": "0.0276 0 0", "Sys": "0 0 0"}
{"sequence": "UUAACGGUUG", "pool": "0.196", "IR": "0.0869 0.108 0.148", "LM": "0 0 0.0232", "Sys": "0 0 0"}
{"sequence": "UUAACGUAAG", "pool": "0.131", "IR": "0.747 0.683 0.443", "LM": "0.110 0.0757 0.116", "Sys": "0 0 0"}
{"sequence": "UUAACGUACG", "pool": "0.170", "IR": "0.730 0.808 0.443", "LM": "0.0828 0.151 0.0464", "Sys": "0.0180 0.0404 0.0410"}
{"sequence": "UUAACGUAGG", "pool": "0.301", "IR": "0.122 0.162 0.0184", "LM": "0.0552 0 0", "Sys": "0 0 0.0205"}
{"sequence": "UUAACGUAUG", "pool": "0.418", "IR": "0.174 0.0539 0.166", "LM": "0.276 0 0", "Sys": "0 0 0"}
{"sequence": "UUAACGUCAG", "pool": "0.327", "IR": "0.782 0.629 0.609", "LM": "0.0828 0.202 0.0696", "Sys": "0 0 0"}
{"sequence": "UUAACGUCCG", "pool": "0.261", "IR": "0.608 0.503 0.572", "LM": "0.0552 0.126 0.139", "Sys": "0.0180 0.0808 0.0410"}
{"sequence": "UUAACGUCGG", "pool": "0.314", "IR": "0.122 0.0898 0.0738", "LM": "0 0 0.0232", "Sys": "0 0 0.0205"}
{"sequence": "UUAACGUCUG", "pool": "0.288", "IR": "0.156 0.198 0.0553", "LM": "0 0 0", "Sys": "0 0 0"}
{"sequence": "UUAACGUGAG", "pool": "0.235", "IR": "0.573 0.808 1.01", "LM": "0.110 0.151 0.186", "Sys": "0 0.0606 0.0615"}
{"sequence": "UUAACGUGCG", "pool": "0.209", "IR": "0.834 0.754 0.406", "LM": "0.193 0.0757 0.0928", "Sys": "0 0 0"}
{"sequence": "UUAACGUGGG", "pool": "0.118", "IR": "0.174 0.144 0.0922", "LM": "0 0 0.0232", "Sys": "0 0 0"}
{"sequence": "UUAACGUGUG", "pool": "0.301", "IR": "0.104 0.180 0.221", "LM": "0 0 0", "Sys": "0 0 0"}
{"sequence": "UUAACGUUAG", "pool": "0.314", "IR": "0.921 0.665 0.590", "LM": "0.0552 0.202 0.0464", "Sys": "0 0 0"}
{"sequence": "UUAACGUUCG", "pool": "0.327", "IR": "0.799 0.719 0.535", "LM": "0.138 0.126 0.0232", "Sys": "0 0.0202 0.0615"}
{"sequence": "UUAACGUUGG", "pool": "0.301", "IR": "0.139 0.0539 0.129", "LM": "0 0 0.0232", "Sys": "0 0 0"}
{"sequence": "UUAACGUUUG", "pool": "0.379", "IR": "0.104 0.144 0.111", "LM": "0 0 0", "Sys": "0 0 0"}
{"sequence": "UUACCGAAAG", "pool": "0.235", "IR": "0.626 0.575 0.645", "LM": "0.110 0.0757 0.0696", "Sys": "0 0 0"}

The opening 2 entries, copied out:

sequence,pool,IR,LM,Sys
UUAACGGACG,0.235,0.695 4.42 5.96,1.41 1.41 0.766,0.377 0.626 0.369
UUAACGGAGA,0.0915,0.469 0.503 0.424,0.0552 0.151 0.0232,0 0.0404 0